Anti-infective test results gathered from many reports (values: NIAID ChemDB through PubChem).

Common to all: enzyme or target tests; agent: HIV-1; protein: Reverse transcriptase; endpoint: IC50

ICn is the concentration giving n% inhibition.

compound,strain,changes,read by,result
Cc1cc(C2CC2)c2ccccc2c1-n1c(Br)nnc1SCC(=O)Nc1ccc(S(=O)(=O)O)cc1Cl,-,RT-Y188L,nucleotide incorporation / radiometric,0.05–0.1 µM
CNC(=O)COC(C)(C)C#Cc1ccc(NC(=O)CSc2nnnn2-c2ccc(C(C)(C)C)cc2Cl)c(Cl)c1,WT,-,PicoGreen / fluorescence,<1 µM
CC(=O)Nc1ccc2c(c1)CN(c1nn3c(C4CC4)nnc3c3ccccc13)CC2,KER2008,-,RT activity / fluorescence,0.11 µM
CCN1c2ncccc2NC(=O)c2cc(CCOc3ccc(-c4ccc(CC(=O)O)cc4)cc3C)cnc21,IIIB,-,nucleotide incorporation / radiometric,<0.05 µM
CC(C)c1nnc2c3ccccc3c(N3CCc4ccc(N)cc4C3)nn12,IIIB,-,RT activity / fluorescence,0.22 µM
COC(=O)[C@@H](NC(=O)c1ccc(NC(=O)CSc2nnc(Br)n2-c2ccc(C3CC3)c3ccccc23)c(Cl)c1)C(C)C,-,RT-Y188L,nucleotide incorporation / radiometric,0.05–0.1 µM
CC(C)(C#Cc1ccc(NC(=O)CSc2nnnn2-c2ccc(C3CC3)cc2Cl)c(Cl)c1)OCCN1CCC(O)CC1,-,RT-K103 Y181C,PicoGreen / fluorescence,<1 µM
Cc1nnc2c3ccccc3c(N3CCc4ccc(N)cc4C3)nn12,IIIB,-,RT activity / fluorescence,3.33 µM
CC(C)(C#Cc1ccc(NC(=O)CSc2nnnn2-c2ccc(C3CC3)cc2Cl)c(Cl)c1)NC(=O)c1ccc[n+]([O-])c1,WT,-,PicoGreen / fluorescence,<1 µM
Fc1ccc2c(c1)CCN(c1nn3c(C4CC4)nnc3c3ccccc13)C2,IIIB,-,RT activity / fluorescence,1.28 µM
CC(C)(C)c1ccc(-n2nnnc2SCC(=O)Nc2ccc(NC(=O)c3ccccc3O)cc2Cl)c(Cl)c1,WT,-,PicoGreen / fluorescence,<1 µM
CCc1ccc(-n2c(C)nnc2SCC(=O)Nc2ccc(S(N)(=O)=O)cc2Cl)c2c1CCCC2,-,-,nucleotide incorporation / radiometric,<0.05 µM
CCN1c2ncc(CCOc3ccc(CC(C)C(=O)O)c4ccccc34)cc2C(=O)N(C)c2ccc(F)nc21,-,RT-Y188L,nucleotide incorporation / radiometric,>1 µM
COc1ccc2c(C)ccc(-n3c(Br)nnc3SCC(=O)Nc3ccc(S(N)(=O)=O)cc3Br)c2c1,-,RT-Y188L,nucleotide incorporation / radiometric,0.05–0.1 µM
CC(C)(C#Cc1ccc(NC(=O)CSc2nnnn2-c2ccc(C3CC3)cc2Cl)c(Cl)c1)NC(=O)CC(=O)O,WT,-,PicoGreen / fluorescence,<1 µM
CCc1cc(NCc2nc3c(C)ccc(C)c3o2)c(=O)[nH]c1C,-,RT-Y181H,nucleotide incorporation,1.14 µM
CN(CC(=O)O)C(=O)c1ccc(NC(=O)CSc2nnc(Br)n2-c2ccc(C3CC3)c3ccccc23)c(Cl)c1,-,RT-Y181C,nucleotide incorporation / radiometric,<0.05 µM
CS(=O)(=O)Nc1ccc2c(c1)CN(c1nn3c(C4CC4)nnc3c3ccccc13)CC2,98US_MSC5016,-,RT activity / fluorescence,0.74 µM
CC(C)(C#Cc1ccc(NC(=O)CSc2nnnn2-c2ccc(C3CC3)cc2Cl)c(Cl)c1)OCCN1CCNCC1,WT,-,PicoGreen / fluorescence,<1 µM
COc1ccc2cccc(-n3c(Br)nnc3SCC(=O)Nc3ccc(C(=O)O)cc3Cl)c2c1,-,-,nucleotide incorporation / radiometric,<0.05 µM
CCN1c2ncc(CCOc3ccc(-c4ccc(C(=O)O)c(F)c4)cc3C)cc2C(=O)N(C)c2cccnc21,IIIB,-,nucleotide incorporation / radiometric,<0.05 µM
Cc1cc(C#CC(C)(C)NC(=O)c2cc[n+]([O-])cc2)ccc1NC(=O)CSc1nnnn1-c1ccc(C2CC2)cc1Cl,-,RT-K103 Y181C,PicoGreen / fluorescence,<1 µM
CCN1c2ncc(CCOc3ccc(-c4ccccc4)cc3)cc2C(=O)N(C)c2cccnc21,IIIB,-,nucleotide incorporation / radiometric,<0.05 µM
CCc1ccc(-n2c(CF)nnc2SCC(=O)Nc2ccc(C(=O)O)cc2Cl)c2ccccc12,-,RT-Y181C,nucleotide incorporation / radiometric,<0.05 µM
COc1ccc2c(c1)CCN(c1nn3c(C4CC4)nnc3c3ccccc13)C2,KER2008,-,RT activity / fluorescence,1.13 µM
CCN1c2ncc(CCOc3ccc(C(=O)Nc4ccc(CC(=O)O)cc4)cc3C)cc2C(=O)Nc2c(C)ccnc21,IIIB,RT-K103N Y181C,nucleotide incorporation / radiometric,<0.05 µM
CC(C)(C)c1ccc(-n2nnnc2SCC(=O)Nc2ccc(OCC(=O)Nc3cccc(C(=O)O)c3)cc2Cl)c(Cl)c1,-,RT-K103 Y181C,PicoGreen / fluorescence,<1 µM
CCCCNC(=O)c1ccc(NC(=O)CSc2nnc(Br)n2-c2ccc(CC)c3ccccc23)c(Cl)c1,-,RT-Y181C,nucleotide incorporation / radiometric,<0.05 µM
O=C(COc1ccc(NC(=O)CSc2nnnn2-c2ccc(C3CC3)cc2Cl)c(Cl)c1)NCCc1cc[n+]([O-])cc1,-,RT-K103 Y181C,PicoGreen / fluorescence,<1 µM
CCNC(=O)N1CCc2c(OCCc3cnc4c(c3)C(=O)N(C)c3cccnc3N4CC)ccc(C(=O)O)c2C1,-,RT-Y188L,nucleotide incorporation / radiometric,>1 µM
CC(C)(C)c1ccc(-n2nnnc2SCC(=O)Nc2ccc(C(=O)NCCc3ccncc3)cc2Cl)c(Cl)c1,-,RT-K103 Y181C,PicoGreen / fluorescence,<1 µM
CCN1c2ncc(CCOc3ccc(CC(=O)O)c4ccccc34)cc2C(=O)N(C)c2ccc(C)nc21,-,RT-K103N Y181C,nucleotide incorporation / radiometric,0.1–1 µM
CN1CCN(C(=O)NC(C)(C)C#Cc2ccc(NC(=O)CSc3nnnn3-c3ccc(C4CC4)cc3Cl)c(Cl)c2)CC1,-,RT-K103 Y181C,PicoGreen / fluorescence,<1 µM
CCN1c2ncc(CCOc3ccc(S(=O)(=O)NC(C)=O)c4ccccc34)cc2C(=O)N(C)c2cccnc21,-,RT-V106A,nucleotide incorporation / radiometric,>1 µM
CC(C)(N)C#Cc1ccc(NC(=O)CSc2nnnn2-c2cc(C3CC3)cc(C(F)(F)F)c2Cl)c(Cl)c1F,-,RT-K103 Y181C,PicoGreen / fluorescence,<1 µM
CCc1ccc(-n2c(Br)nnc2SCC(=O)Nc2ccc(C(=O)NCC(C)O)cc2Cl)c2ccccc12,-,RT-Y181C,nucleotide incorporation / radiometric,<0.05 µM

For reference, 5 entries again:

CCNC(=O)N1CCc2c(OCCc3cnc4c(c3)C(=O)N(C)c3cccnc3N4CC)ccc(C(=O)O)c2C1 ; changes: RT-Y188L ; read by: nucleotide incorporation / radiometric ; result: >1 µM
CNC(=O)COC(C)(C)C#Cc1ccc(NC(=O)CSc2nnnn2-c2ccc(C(C)(C)C)cc2Cl)c(Cl)c1 ; strain: WT ; read by: PicoGreen / fluorescence ; result: <1 µM
O=C(COc1ccc(NC(=O)CSc2nnnn2-c2ccc(C3CC3)cc2Cl)c(Cl)c1)NCCc1cc[n+]([O-])cc1 ; changes: RT-K103 Y181C ; read by: PicoGreen / fluorescence ; result: <1 µM
COc1ccc2c(C)ccc(-n3c(Br)nnc3SCC(=O)Nc3ccc(S(N)(=O)=O)cc3Br)c2c1 ; changes: RT-Y188L ; read by: nucleotide incorporation / radiometric ; result: 0.05–0.1 µM
CC(C)(C#Cc1ccc(NC(=O)CSc2nnnn2-c2ccc(C3CC3)cc2Cl)c(Cl)c1)NC(=O)c1ccc[n+]([O-])c1 ; strain: WT ; read by: PicoGreen / fluorescence ; result: <1 µM

Conditions beyond the fields shown may differ between rows. An empty or dashed field is not shown. Two numbers with a dash give a range or band.